{"sequences": {"note": "Chains of the proteins cited; added tags and fusions are not shown.", "UniProt Q00975, whole entry, looked up": "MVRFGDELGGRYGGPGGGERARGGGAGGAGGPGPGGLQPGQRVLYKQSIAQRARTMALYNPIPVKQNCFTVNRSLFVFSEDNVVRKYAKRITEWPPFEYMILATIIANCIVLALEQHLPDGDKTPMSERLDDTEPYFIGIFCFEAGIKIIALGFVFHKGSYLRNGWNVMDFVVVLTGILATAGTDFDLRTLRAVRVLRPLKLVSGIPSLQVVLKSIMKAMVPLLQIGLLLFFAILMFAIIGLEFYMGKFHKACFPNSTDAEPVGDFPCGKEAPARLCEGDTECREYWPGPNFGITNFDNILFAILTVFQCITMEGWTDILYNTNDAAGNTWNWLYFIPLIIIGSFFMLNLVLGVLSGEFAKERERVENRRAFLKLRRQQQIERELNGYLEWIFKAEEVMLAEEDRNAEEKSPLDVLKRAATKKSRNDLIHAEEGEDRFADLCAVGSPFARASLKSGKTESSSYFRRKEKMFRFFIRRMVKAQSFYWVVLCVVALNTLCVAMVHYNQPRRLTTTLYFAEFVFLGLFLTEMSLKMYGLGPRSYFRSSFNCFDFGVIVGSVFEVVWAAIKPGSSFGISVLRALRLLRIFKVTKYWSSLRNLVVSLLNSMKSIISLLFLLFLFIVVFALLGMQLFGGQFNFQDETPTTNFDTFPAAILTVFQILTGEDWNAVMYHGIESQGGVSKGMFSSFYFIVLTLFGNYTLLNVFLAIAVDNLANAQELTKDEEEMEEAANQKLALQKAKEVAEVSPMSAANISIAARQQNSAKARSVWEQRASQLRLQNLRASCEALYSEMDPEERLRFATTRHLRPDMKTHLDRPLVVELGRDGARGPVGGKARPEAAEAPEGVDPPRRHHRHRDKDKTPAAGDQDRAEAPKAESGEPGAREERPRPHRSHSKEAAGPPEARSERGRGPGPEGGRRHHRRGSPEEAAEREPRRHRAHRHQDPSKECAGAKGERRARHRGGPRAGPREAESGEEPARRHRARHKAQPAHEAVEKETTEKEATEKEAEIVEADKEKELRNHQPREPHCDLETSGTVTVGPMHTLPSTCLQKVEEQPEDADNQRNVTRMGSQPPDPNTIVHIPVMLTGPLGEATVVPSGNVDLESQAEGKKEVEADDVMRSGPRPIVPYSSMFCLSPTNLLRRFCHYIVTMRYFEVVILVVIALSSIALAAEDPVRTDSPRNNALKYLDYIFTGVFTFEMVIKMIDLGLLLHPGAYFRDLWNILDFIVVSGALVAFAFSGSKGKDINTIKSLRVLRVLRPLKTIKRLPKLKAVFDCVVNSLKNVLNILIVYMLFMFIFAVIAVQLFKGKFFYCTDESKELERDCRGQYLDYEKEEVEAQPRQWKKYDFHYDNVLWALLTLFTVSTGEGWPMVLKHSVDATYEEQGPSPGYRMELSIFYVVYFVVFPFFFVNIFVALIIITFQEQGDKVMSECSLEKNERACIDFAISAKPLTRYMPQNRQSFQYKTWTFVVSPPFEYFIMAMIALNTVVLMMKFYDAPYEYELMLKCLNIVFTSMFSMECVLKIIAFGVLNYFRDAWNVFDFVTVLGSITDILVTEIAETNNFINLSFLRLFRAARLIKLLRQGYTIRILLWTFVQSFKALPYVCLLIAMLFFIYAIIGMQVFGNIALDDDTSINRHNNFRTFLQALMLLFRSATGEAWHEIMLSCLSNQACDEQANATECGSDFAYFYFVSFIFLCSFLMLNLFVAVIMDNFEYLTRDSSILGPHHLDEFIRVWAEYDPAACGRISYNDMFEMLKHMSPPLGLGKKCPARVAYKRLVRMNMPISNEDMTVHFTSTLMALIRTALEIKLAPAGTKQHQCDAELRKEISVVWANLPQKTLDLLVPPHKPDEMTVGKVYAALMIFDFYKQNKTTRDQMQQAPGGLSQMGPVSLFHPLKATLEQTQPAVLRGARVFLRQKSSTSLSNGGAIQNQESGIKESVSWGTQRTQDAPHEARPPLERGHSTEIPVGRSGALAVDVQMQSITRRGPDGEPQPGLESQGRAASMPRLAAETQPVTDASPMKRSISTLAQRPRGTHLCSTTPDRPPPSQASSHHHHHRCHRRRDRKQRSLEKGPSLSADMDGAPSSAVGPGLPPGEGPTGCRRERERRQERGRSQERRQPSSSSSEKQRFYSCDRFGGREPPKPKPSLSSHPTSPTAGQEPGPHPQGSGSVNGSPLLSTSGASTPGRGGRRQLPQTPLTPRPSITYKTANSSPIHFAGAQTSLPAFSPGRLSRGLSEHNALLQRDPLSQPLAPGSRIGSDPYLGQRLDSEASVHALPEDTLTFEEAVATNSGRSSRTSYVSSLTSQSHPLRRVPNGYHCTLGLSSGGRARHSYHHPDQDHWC"}, "source": "paper PMC6128854", "about": "(Scientific Reports, 2018)", "biological_target": "Cav2.2 in human SH-SY5Y cell membranes (Homo sapiens, UniProt Q00975)", "assay": "125I-GVIA radioligand displacement, SH-SY5Y cell membranes", "type": "binding"}
{"smiles": "CSCC[C@@H]1NC(=O)[C@H](CC(C)C)NC(=O)[C@H](CCCNC(=N)N)NC(=O)[C@H](CO)NC(=O)[C@@H]2CSSC[C@@H]3NC(=O)[C@H](CO)NC(=O)CNC(=O)[C@H]([C@@H](C)O)NC(=O)[C@H](CSSC[C@H](N)C(=O)N[C@@H](CCCCN)C(=O)NCC(=O)N[C@@H](CCCCN)C(=O)NCC(=O)N[C@@H](C)C(=O)N[C@@H](CCCCN)C(=O)N2)NC(=O)[C@H](CSSC[C@@H](C(N)=O)NC(=O)[C@H](CCCCN)NC(=O)CNC(=O)[C@H](CO)NC(=O)[C@H](CCCNC(=N)N)NC3=O)NC(=O)[C@H](CC(=O)O)NC(=O)[C@H](CCCNC(=N)N)NC1=O", "values": [{"measurement": "fold decrease in binding affinity over MVIIA", "result": "~ 100 fold"}]}
